Measured values from several laboratories, pooled; numbers as filed in NIAID ChemDB.

Shared fields: target-level tests; organism: HIV-1; target: Integrase

Two numbers with a dash give a range or band. Rows are shuffled and stem from different studies. ICn: concentration for n% inhibition. An empty or dashed field is not shown. Fold resistance: result on the changed form divided by that on wild type.

compound | changes | method | measure | value
O=C(c1cn2ccn(Cc3cccc(Cl)c3)c(=O)c2c(O)c1=O)N1CCOCC1 | - | ELISA | IC50 | 0.01–0.1 µM
CC(=O)OCC12CCC(NC(=O)C(=O)N(C)C)(CC1)c1nc(C(=O)NCc3ccc(F)c(C)c3)c(O)c(=O)n1C2 | - | radiometric | Ki | 0.0000021 µM
O=C(NCc1ccc(F)cc1)c1nc2n(c(=O)c1O)CCN(Cc1cocn1)C21CC1 | - | ELISA | IC50 | <10 µM
CCOC(=O)C(=O)N1CCC2(C1)OCCn1c2nc(C(=O)NCc2ccc(F)cc2-n2ncnc2C)c(O)c1=O | - | binding / radiometric | Ki | 0.003–0.05 µM
O=C(/C=C/c1ccc(O)c(O)c1)OCCc1ccc(N=C=S)cc1 | C56S | 3′ processing | fold resistance | 4.5
Cc1cc2c(cc1Cl)SC(C(=O)c1ccc(Cl)cc1)=NS2(=O)=O | INTG-C65S | 3′ processing | fold resistance | 1.1
CC(C)CNC1CN(C)CCn2c1nc(C(=O)NCc1ccc(F)cc1)c(O)c2=O | - | ELISA | IC50 | <10 µM
CCN(Cc1ccc(F)cc1)C(=O)/C=C(\O)C(=O)O | - | strand transfer | IC50 | <70 µM
O=C(C1=NS(=O)(=O)c2ccc(Cl)cc2S1)c1ccc(Cl)c(Cl)c1 | INTG-C65S | 3′ processing | fold resistance | 2.47
Cc1ncnn1-c1cc(F)ccc1CNC(=O)c1nc2n(c(=O)c1O)CCCOC21CCN(C(=O)OCc2ccccc2)CC1 | - | binding / radiometric | Ki | 0.003–0.05 µM
O=C(O)/C(O)=C/C(=O)N(CCc1ccccc1)Cc1ccccc1 | - | strand transfer | IC50 | <70 µM
Cc1cccc(CNC(=O)c2nc3n(c(=O)c2O)CC2(F)CCC3(NC(=O)C(=O)C(C)C)CC2)c1 | - | radiometric | Ki | 0.000003 µM
O=C(/C=C/c1ccc(O)c(O)c1)OCCc1ccccc1 | C65S | 3′ processing | fold resistance | 2.2
CN(C)S(=O)(=O)N1CCC2(CC1)COCCn1c2nc(C(=O)NCc2ccc(F)cc2)c(O)c1=O | - | binding / radiometric | Ki | 0.003–0.05 µM
O=c1c(-c2ccncn2)cn2ccn(Cc3cccc(F)c3)c(=O)c2c1O | - | ELISA | IC50 | 0.01–0.1 µM
CN(C)CC1c2nc(C(=O)NCc3ccc(F)cc3)c(O)c(=O)n2CCN1S(C)(=O)=O | - | ELISA | IC50 | <10 µM
O=C(/C=C/c1ccc(O)c(O)c1)OCCc1cccc(N=C=S)c1 | C56S | 3′ processing | fold resistance | 7.67
CCCCC1CN(Cc2ccc(Cl)c(Cl)c2)C(=O)c2c(O)c(=O)ccn21 | - | ELISA | IC50 | 0.01–0.1 µM
Cc1nnc(C23CCC(NC(=O)C(=O)N(C)C)(CC2)c2nc(C(=O)NCc4ccc(F)c(C)c4)c(O)c(=O)n2C3)o1 | - | radiometric | Ki | 0.0000024 µM
CC(=O)N1Cn2c(nc(C(=O)NCc3ccc(F)cc3)c(O)c2=O)C1(C)C | - | ELISA | IC50 | <10 µM
O=C(/C=C/c1ccc(O)c(O)c1)Oc1ccc2c(N=C=S)cccc2c1 | C65S | 3′ processing | fold resistance | 2.33
CN(C(=O)/C=C(\O)C(=O)O)C(c1ccc(Cl)cc1)c1ccc(Cl)cc1 | - | strand transfer | IC50 | <70 µM
Cc1cc(CNC(=O)C23CCC(NC(=O)C(=O)N(C)C)(CC2)c2nc(C(=O)NCc4ccc(F)c(C)c4)c(O)c(=O)n2C3)no1 | - | radiometric | Ki | 0.0000021 µM
Cc1cc2c(cc1Cl)SC(C(=O)c1ccc(Cl)c(Cl)c1)=NS2(=O)=O | INTG-C65S | 3′ processing | fold resistance | 1.33
O=C(NCc1ccco1)c1cn2c(c(O)c1=O)C(=O)N(Cc1ccc(F)cc1)CC2 | - | ELISA | IC50 | 0.01–0.1 µM
COC(=O)N1CCC2(CC1)COCCn1c2nc(C(=O)NCc2ccc(F)cc2-n2ncnc2C)c(O)c1=O | - | binding / radiometric | Ki | 0.003–0.05 µM
O=C(NCc1cccc2ccccc12)c1cn2c(c(O)c1=O)C(=O)N(Cc1cccc(Cl)c1)CC2 | - | ELISA | IC50 | <0.01 µM
Cc1cc(Cl)cc2c1S(=O)(=O)N=C(C(=O)c1ccc(Cl)c(Cl)c1)S2 | INTG-C65S | 3′ processing | fold resistance | 0.22
Cc1nnc(C(=O)N2CCC3(CC2)OCCCn2c3nc(C(=O)NCc3ccc(F)cc3-n3ncnc3C)c(O)c2=O)o1 | - | binding / radiometric | Ki | 0.003–0.05 µM
CC(C)(C)C(=O)c1cn2ccn(Cc3cccc(F)c3)c(=O)c2c(O)c1=O | - | ELISA | IC50 | 0.01–0.1 µM
COc1ccccc1CNC(=O)/C=C(\O)C(=O)O | - | strand transfer | IC50 | ~70 µM
Cc1cc(C(=O)N(C)C23CCC(F)(CC2)Cn2c3nc(C(=O)NCc3ccc(F)c(C)c3)c(O)c2=O)no1 | - | radiometric | Ki | 0.000002 µM
O=C(C1=NS(=O)(=O)c2ccc(Cl)cc2S1)c1ccc(Cl)cc1 | INTG-C65S | strand transfer | fold resistance | 1.1

For reference, 5 entries again:

compound,changes,method,measure,value
CCOC(=O)C(=O)N1CCC2(C1)OCCn1c2nc(C(=O)NCc2ccc(F)cc2-n2ncnc2C)c(O)c1=O,-,binding / radiometric,Ki,0.003–0.05 µM
Cc1nnc(C23CCC(NC(=O)C(=O)N(C)C)(CC2)c2nc(C(=O)NCc4ccc(F)c(C)c4)c(O)c(=O)n2C3)o1,-,radiometric,Ki,0.0000024 µM
Cc1ncnn1-c1cc(F)ccc1CNC(=O)c1nc2n(c(=O)c1O)CCCOC21CCN(C(=O)OCc2ccccc2)CC1,-,binding / radiometric,Ki,0.003–0.05 µM
O=C(C1=NS(=O)(=O)c2ccc(Cl)cc2S1)c1ccc(Cl)c(Cl)c1,INTG-C65S,3′ processing,fold resistance,2.47
Cc1cc2c(cc1Cl)SC(C(=O)c1ccc(Cl)c(Cl)c1)=NS2(=O)=O,INTG-C65S,3′ processing,fold resistance,1.33